These results are taken from PubChem BioAssay AID1619 (SRMLSC, 2009).

Protein sequences, listed by entry. Tags and fused reporters are not part of them.
UniProt Q8IL11, whole entry: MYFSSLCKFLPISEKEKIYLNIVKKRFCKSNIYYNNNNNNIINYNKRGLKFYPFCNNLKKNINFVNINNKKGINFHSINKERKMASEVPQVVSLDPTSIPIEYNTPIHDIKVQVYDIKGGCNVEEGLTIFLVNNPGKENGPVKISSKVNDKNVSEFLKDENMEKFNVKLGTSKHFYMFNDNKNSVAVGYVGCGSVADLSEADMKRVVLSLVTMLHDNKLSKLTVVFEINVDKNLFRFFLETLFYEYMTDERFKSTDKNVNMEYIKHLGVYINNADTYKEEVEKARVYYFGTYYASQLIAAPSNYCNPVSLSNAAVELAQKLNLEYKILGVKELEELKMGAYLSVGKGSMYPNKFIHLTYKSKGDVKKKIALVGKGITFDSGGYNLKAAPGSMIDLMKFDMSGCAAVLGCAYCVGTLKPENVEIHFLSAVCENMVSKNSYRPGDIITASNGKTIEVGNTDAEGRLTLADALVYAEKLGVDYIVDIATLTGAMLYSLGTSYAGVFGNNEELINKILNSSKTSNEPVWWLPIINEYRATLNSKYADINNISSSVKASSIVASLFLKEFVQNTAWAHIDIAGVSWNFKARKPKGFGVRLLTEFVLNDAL

This is one part of the list. Results with a measured potency or affinity are listed apart. Some salts and complexes are drawn in separate pieces, as the source files them; their charges need not balance. The source made the active and inactive calls.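 Rule for the calls: active = compound inhibiting the enzyme by more than half at any dose during confirmatory dose-response retesting; inconclusive = strong single-dose inhibitors picked by rank but not retested; inactive = the rest.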

This experiment addresses Leucine aminopeptidase (Plasmodium falciparum (isolate 3D7)) (UniProt Q8IL11). Put plainly: P. falciparum M17LAP inhibitors, primary screen, biochemical, fluorogenic H-Leu-NHMec substrate, 1536-well (AID 1619).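 Note: plate controls were full reaction with DMSO carrier for no effect and no enzyme background for full effect.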 The following applies: recombinant M17LAP, H-Leu-NHMec fluorogenic kinetic assay; at 30 µM; active compounds read high.
A word on the inhibition: it is the relative decrease from the control value, in per cent. For `Cc1cc(-c2cccc3ccccc23)c(C)cn1.O=[N+]([O-])c1cc([N+](=O)[O-])c(O)c([N+](=O)[O-])c1`, the inhibition was inactive: 10.8%.

Take `O=[N+]([O-])c1cc([N+](=O)[O-])c(NCC2CCS(=O)(=O)C2)c([N+](=O)[O-])c1` (centres undefined): the inhibition is inactive: 5.17%.

Regarding `O=[N+]([O-])c1ccc(OP2(=O)COCCO2)cc1` (centres undefined), the inhibition was inactive: 3.43%.

Regarding `COc1ccc(NP(C)(=O)Oc2ccccc2OC)cc1` (centres undefined), the inhibition was inactive: -6.04%.

In the case of `CN(C)CCOC(=O)C(O)(c1ccccc1)C1CCCCC1` (centres undefined), the inhibition is inactive: -0.93%.

In the case of `COc1ccc(OP(C)(=O)Nc2cccc(Br)c2)cc1` (centres undefined), the inhibition was inactive: 7.33%.

For the compound `CCCCCOc1ccc(NP(C)(=O)Oc2ccc(Cl)cc2Cl)cc1` (centres undefined), the inhibition was inactive: -1.95%.

As for `CP(=O)(Nc1ccccc1)Oc1ccc(F)cc1` (centres undefined), the inhibition is inactive: 0.41%.

With `CCN(CC)CCCOC(=O)C(O)(c1ccccc1)C1CCCCC1` (centres undefined), the inhibition was inactive: 9.89%.

`COc1ccc(OP(C)(=O)Nc2ccc(SC(F)(F)F)cc2)cc1` (centres undefined): the inhibition was inactive: -1.15%.

Consider `CCOC(=O)c1ccc(NP(C)(=O)Oc2ccc(F)cc2)cc1` (centres undefined), for which the inhibition is inactive: 6.49%.

Regarding `COc1ccc2c(c1O)-c1c(O)c(OC)cc3c1[C@H](C2)[N+](C)(C)CC3.O=[N+]([O-])c1cc([N+](=O)[O-])c([O-])c([N+](=O)[O-])c1[O-]`, the inhibition is inactive: -9.94%.

Take `O=C(OCCN1CCN(CCOCc2ccccc2)CC1)C(O)(c1ccccc1)c1ccccc1`: the inhibition was inactive: 3.73%.

With `O=C(OC1CN2CCC1CC2)c1ccc([N+](=O)[O-])cc1` (centres undefined), the inhibition was inactive: -4.27%.

Regarding `CC(C)c1ccc(OP(C)(=O)Nc2ccc(SC(F)(F)F)cc2)cc1` (centres undefined), the inhibition is inactive: 3.13%.

Regarding `CP(=O)(Nc1ccccc1F)Oc1ccccc1` (centres undefined), the inhibition was inactive: -6.39%.

On to `Cc1cc(C)cc(OP(C)(=O)Nc2ccccn2)c1` (centres undefined), for which the inhibition is inactive: 15.1%.

For the compound `CP(=O)(Nc1cccc(Br)c1)Oc1ccccc1` (centres undefined), the inhibition is inactive: -2.39%.

Take `Cc1ccc(C)c(NP(C)(=O)Oc2ccccc2)c1` (centres undefined): the inhibition was inactive: 6.63%.

Regarding `Cc1cc(C)cc(OP(C)(=O)Nc2ccc(C)cc2C)c1` (centres undefined), the inhibition is inactive: -4.55%.

As for `CCOC(=O)c1ccc(NP(C)(=O)Oc2cc(C)cc(C)c2)cc1` (centres undefined), the inhibition was inactive: 24.2%.

As to `COc1ccccc1OP(C)(=O)Nc1cccc(Br)c1` (centres undefined), the inhibition is inactive: -5.12%.

Take `CC1=NCCc2c1[nH]c1ccccc21.O=[N+]([O-])c1cc([N+](=O)[O-])c(O)c([N+](=O)[O-])c1`: the inhibition was inactive: 4.47%.

Turning to `O=C(O)c1cccc(Nc2c([N+](=O)[O-])cc([N+](=O)[O-])cc2[N+](=O)[O-])c1`, the inhibition was inactive: -14.8%.

With `CCCOc1ccc(NP(C)(=O)Oc2ccc(Cl)cc2)cc1` (centres undefined), the inhibition is inactive: 39.8%.

On to `CP(=O)(Nc1ccc(SC(F)(F)F)cc1)Oc1ccccc1` (centres undefined), for which the inhibition is inactive: -10.7%.

On to `COc1ccccc1OP(C)(=O)Nc1c(C)cccc1C` (centres undefined), for which the inhibition was inactive: -2.04%.

Take `CN1CCCCC1COC(=O)C1(O)c2ccccc2CCc2ccccc21` (centres undefined): the inhibition was inactive: -1.72%.

On to `O=[N+]([O-])c1cc([N+](=O)[O-])c(Nc2nnnn2CCO)c([N+](=O)[O-])c1`, for which the inhibition was inactive: 1.67%.

Regarding `CCOC(=O)C(CC)C1=NC(C)(C)Cc2ccccc21.O=[N+]([O-])c1cc([N+](=O)[O-])c(O)c([N+](=O)[O-])c1` (centres undefined), the inhibition is inactive: 16.6%.

With `Cc1nc2ccc3ccccc3c2s1.O=[N+]([O-])c1cc([N+](=O)[O-])c(O)c([N+](=O)[O-])c1`, the inhibition is inactive: -17.4%.

As for `O=[N+]([O-])c1cc([N+](=O)[O-])c(-n2nnc3ccccc32)c([N+](=O)[O-])c1`, the inhibition is inactive: 6.57%.

In the case of `CP(=O)(Nc1ccccn1)Oc1ccc(Cl)cc1` (centres undefined), the inhibition is inactive: 1.74%.

On to `CCOP(C)(=S)SCC(=O)NC(C)C(=O)O` (centres undefined), for which the inhibition is inactive: 0.15%.

As to `CCOC(=O)c1ccc(NP(C)(=O)Oc2ccc(OC)cc2)cc1` (centres undefined), the inhibition is inactive: 11.2%.

As to `CP(=O)(NC(=O)Nc1ccccc1)Oc1ccccc1` (centres undefined), the inhibition is inactive: -6.34%.

As to `CCc1ccc(OP(C)(=O)N2CCN(c3ccc([N+](=O)[O-])cc3)CC2)cc1` (centres undefined), the inhibition was inactive: 7.93%.

For `Cc1cc(C)cc(OP(C)(=O)Nc2ccc(SC(F)(F)F)cc2)c1` (centres undefined), the inhibition was inactive: 0.93%.

Regarding `Cc1cccc(C)c1OP(C)(=O)Nc1ccc(SC(F)(F)F)cc1` (centres undefined), the inhibition was inactive: 16%.

Consider `CP(=O)(Nc1ccc(SC(F)(F)F)cc1)Oc1ccc(Cl)cc1` (centres undefined), for which the inhibition was inactive: -14.2%.

In the case of `CP(=O)(Oc1ccccc1)OC(c1ccccc1)C(F)(F)F` (centres undefined), the inhibition was inactive: 0.66%.

On to `COc1ccccc1OP(C)(=O)Nc1ccccc1` (centres undefined), for which the inhibition was inactive: -2.6%.

As for `CP(=O)(Nc1ccccc1Br)Oc1ccccc1` (centres undefined), the inhibition was inactive: -3.67%.

For the compound `CP(=S)(Nn1cnnc1)Oc1ccccc1` (centres undefined), the inhibition was inactive: 4.94%.

For `COc1ccccc1OP(C)(=O)Nc1cc(Cl)ccc1C` (centres undefined), the inhibition is inactive: 3.84%.

Consider `COc1ccc(OP(C)(=O)Nc2cccc(F)c2)cc1` (centres undefined), for which the inhibition was inactive: 2.99%.

Regarding `Cc1cc(C)cc(OP(C)(N)=O)c1` (centres undefined), the inhibition was inactive: 2.38%.

In the case of `CCOC(=O)c1ccc(NP(C)(=O)Oc2ccccc2)cc1` (centres undefined), the inhibition is inactive: -17.6%.

With `COc1ccccc1OP(C)(=O)Nc1ccc(C)cc1` (centres undefined), the inhibition is inactive: -7.79%.

Take `Cc1ccc(NP(C)(=O)Oc2ccccc2)c(C)c1` (centres undefined): the inhibition is inactive: 14.1%.

With `CC(C)(C)c1ccc(OP(C)(=O)Nc2ccc(SC(F)(F)F)cc2)cc1` (centres undefined), the inhibition was inactive: -1.58%.

Take `Cc1cccc(C)c1OP(C)(N)=O` (centres undefined): the inhibition is inactive: -4.57%.

For the compound `O=[N+]([O-])c1ccc2c(c1)C=Nc1ccccc1O2`, the inhibition is inactive: 2.69%.

With `CCN(CC)CCCOC(=O)C(O)(c1ccccc1)c1ccccc1`, the inhibition is inactive: -0.12%.
